PubChem BioAssay AID1259414 – Drosophila RNAi Screening Center – 2018

Aim: 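Fly genes that alter Wolbachia amount inside host cells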 (primary screen)
Cells: Drosophila JW18 cells infected with Wolbachia
Reagents: long dsRNA against Drosophila genes, 0.25 µg dsRNA per well of a 384-well plate
Duration: 5 days
Challenge: cells persistently infected with Wolbachia before knock-down; no added drug
Read-out: 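Imaged fluorescence in situ signal for Wolbachia 23S rRNA per DAPI-counted host cell, given as a robust z-score within each plate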
Scale: Wolbachia per cell robust z: higher = more Wolbachia per host cell than the plate typical
Call rule: 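Hit when robust z is 1.5 or more, or -1.5 or less, in at least two of three replicates; excludes dsRNAs with several or no targets, genes not expressed in JW18 and well A1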
In all, the deposit lists about 24,000 reagents; below is an unselected part of those with a known target gene and a result. Over the whole deposit, about 1,210 (5%) were called active. 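Inactive calls also include excluded dsRNAs with several or no targets, genes unexpressed in JW18, and well A1, regardless of score.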

target | dsRNA | Wolbachia per cell robust z, rep 1 | Wolbachia per cell robust z, rep 2 | Wolbachia per cell robust z, rep 3 | Outcome
CG7912 | DRSC16343 | 0.327 | 0.501 | 0.519 | inactive
CG5866 | DRSC15900 | 0.0374 | 1.33 | -0.384 | inactive
thoc6 | DRSC10528 | 0.844 | -0.281 | 1.06 | inactive
CG14966 | DRSC08425 | -0.63 | 1.01 | 0.107 | inactive
Prosalpha6T (Proteasome alpha6 subunit, Testis-specific) | DRSC02873 | 1.39 | -1.31 | 1.08 | inactive
Eig71Ea (Ecdysone-induced gene 71Ea) | DRSC11148 | 1.03 | 0.676 | -0.0649 | inactive
CG33093 | DRSC15775 | 0.949 | 0.153 | -1.28 | inactive
CG31832 | DRSC22067 | 0.805 | 0.877 | 0.785 | inactive
CG31832 | DRSC26012 | -0.0158 | 0.15 | -0.706 | inactive
CG10710 | DRSC09784 | 0.296 | -0.786 | -0.159 | inactive
tna (tonalli) | DRSC23236 | 1.5 | -1.42 | -0.227 | inactive
tna (tonalli) | DRSC29530 | -1.39 | -0.296 | -1.44 | inactive
CG7632 | DRSC11842 | -0.367 | -0.175 | 0.741 | inactive
mv (mauve) | DRSC08208 | 0.335 | 0.195 | 0.273 | inactive
mv (mauve) | DRSC08570 | -0.0353 | 0.0326 | 0.282 | inactive
mv (mauve) | DRSC28733 | 0.62 | 0.998 | 0.738 | inactive
plu (plutonium) | DRSC07665 | -0.534 | -0.418 | -1.92 | inactive
CG8701 | DRSC07237 | 0.955 | -0.593 | -0.562 | inactive
Atx2 (Ataxin-2) | DRSC23010 | -0.0288 | -0.0172 | -4 | inactive
Atx2 (Ataxin-2) | DRSC40788 | 0.305 | 0.302 | 1.04 | inactive
sd (scalloped) | DRSC20370 | -4.42 | 1.02 | 0.906 | inactive
sd (scalloped) | DRSC37640 | -0.904 | -1.58 | -0.95 | inactive
ASPP | DRSC23069 | 0.513 | 0.293 | -1.86 | inactive
SH3PX1 (SH3 and PX domain containing 1) | DRSC11139 | -0.0894 | 0.783 | -0.682 | inactive
betaNACtes3 (Nascent-associated complex beta-subunit-like, testis 3) | DRSC20183 | -2.08 | 0.392 | 0.71 | inactive
Rab10 | DRSC20572 | 0.671 | 0.541 | 0.545 | inactive
Rab10 | DRSC25270 | -0.669 | 2.2 | 1.98 | active
CG17572 | DRSC02629 | -3.34 | -3.75 | -1.01 | inactive
CG30479 | DRSC06735 | 0.43 | -0.0853 | -1.54 | inactive
CG30479 | DRSC28843 | 0.804 | -0.455 | -0.0922 | inactive
CheB93a (Chemosensory protein B 93a) | DRSC15044 | -2.89 | 0.886 | 1.27 | inactive

Reprinted from above, 12 entries:
target | dsRNA | Wolbachia per cell robust z, rep 1 | Wolbachia per cell robust z, rep 2 | Wolbachia per cell robust z, rep 3 | Outcome
plu (plutonium) | DRSC07665 | -0.534 | -0.418 | -1.92 | inactive
CG8701 | DRSC07237 | 0.955 | -0.593 | -0.562 | inactive
Atx2 (Ataxin-2) | DRSC23010 | -0.0288 | -0.0172 | -4 | inactive
Atx2 (Ataxin-2) | DRSC40788 | 0.305 | 0.302 | 1.04 | inactive
sd (scalloped) | DRSC20370 | -4.42 | 1.02 | 0.906 | inactive
sd (scalloped) | DRSC37640 | -0.904 | -1.58 | -0.95 | inactive
ASPP | DRSC23069 | 0.513 | 0.293 | -1.86 | inactive
SH3PX1 (SH3 and PX domain containing 1) | DRSC11139 | -0.0894 | 0.783 | -0.682 | inactive
betaNACtes3 (Nascent-associated complex beta-subunit-like, testis 3) | DRSC20183 | -2.08 | 0.392 | 0.71 | inactive
Rab10 | DRSC20572 | 0.671 | 0.541 | 0.545 | inactive
Rab10 | DRSC25270 | -0.669 | 2.2 | 1.98 | active
CG17572 | DRSC02629 | -3.34 | -3.75 | -1.01 | inactive

Next reagents:
target | dsRNA | Wolbachia per cell robust z, rep 1 | Wolbachia per cell robust z, rep 2 | Wolbachia per cell robust z, rep 3 | Outcome
botv | DRSC05949 | 0.771 | -0.993 | 0.049 | inactive
botv | DRSC28034 | 1.43 | -1.04 | -0.778 | inactive
CG5860 | DRSC15896 | 0.367 | 0.719 | -0.424 | inactive
CG11828 | DRSC14394 | 0.268 | -0.231 | -0.453 | inactive
CG11828 | DRSC22580 | 0.425 | 0.504 | 0.522 | inactive
CG11828 | DRSC29853 | -1.05 | 0.173 | 0.143 | inactive
CG31156 | DRSC15753 | 0.417 | -0.055 | -1.6 | inactive
CG31156 | DRSC15755 | 0.509 | -1.7 | 0.563 | inactive
CG14556 | DRSC14899 | -3.31 | -1.51 | -0.466 | inactive
CG5235 | DRSC10494 | -1.59 | -0.893 | -0.611 | inactive
Bulli | DRSC10974 | 0.41 | 0.825 | -2.55 | inactive
Fkbp59 (FK506-binding protein 59kD) | DRSC03323 | 1.63 | -0.119 | 0.271 | inactive
Fkbp59 (FK506-binding protein 59kD) | DRSC28356 | 0.476 | 0.776 | 0.453 | inactive
Atg18a (Autophagy-related 18a) | DRSC10943 | 0.175 | -8.87 | 0.108 | inactive
CG14313 | DRSC14792 | 0.443 | 0.0522 | -0.00978 | inactive
CG32214 | DRSC09613 | -2.05 | -2.59 | -2.42 | inactive
Sou (Souji) | DRSC04356 | -0.364 | -3.43 | -1.33 | inactive
MICAL-like | DRSC09829 | -0.241 | 1.32 | 0.28 | inactive
synr (sayonara) | DRSC02369 | -1.3 | -0.124 | -0.764 | inactive
l(1)G0020 (lethal (1) G0020) | DRSC18198 | 0.31 | 0.0863 | -0.98 | inactive
CG14984 | DRSC08442 | -0.219 | -2.07 | -0.43 | inactive
CG14984 | DRSC27683 | -0.309 | -0.538 | -1.37 | inactive
CG15012 | DRSC08465 | -2.56 | 0.37 | -2.12 | active
CG31008 | DRSC14028 | 0.0859 | 0.0265 | 0.469 | inactive
CG31008 | DRSC27234 | -0.481 | -1.43 | -0.972 | inactive
CG6470 | DRSC19994 | 0.755 | 0.313 | 1.65 | inactive
CG6470 | DRSC27690 | -0.553 | -1.26 | -12.2 | inactive
bip1 | DRSC11327 | -0.344 | 0.184 | -0.882 | inactive
CG33191 | DRSC27362 | 0.544 | 1.05 | 1.15 | inactive
CG32808 | DRSC17689 | 0.93 | 1.19 | 1.17 | inactive
CG32808 | DRSC28726 | 0.86 | 0.511 | 1.3 | inactive
Spn28F (Serpin 28F) | DRSC03615 | -1.49 | 0.547 | -0.803 | inactive
Spn28F (Serpin 28F) | DRSC25759 | -0.832 | 1.52 | -1.28 | inactive
angel | DRSC04670 | 0.118 | -0.565 | -1.68 | inactive
angel | DRSC21326 | -0.0258 | -1.2 | 0.0391 | inactive
BomT1 (Bomanin Tailed 1) | DRSC41439 | -0.593 | 0.192 | -1.22 | inactive
CG13919 | DRSC08388 | 1.28 | -0.0195 | -1.36 | inactive
